Measured values from several laboratories, pooled; numbers as filed in NIAID ChemDB.

Shared fields: cytotoxicity tests; cells: KB; read-out: CC50

An empty or dashed field is not shown. CCn: concentration that lowers growth or viability of the cells by n%. Lines come from different laboratories, so protocols vary.

| compound | method | result |
|---|---|---|
| Nc1nc2c(ncn2COC(CO)CO)c(=O)[nH]1 | - | >100 µM |
| O=C1CCn2c(nc3c(c2=S)C2=C(CCC/C2=C\c2ccncc2)C(c2ccncc2)S3)S1 | MTT | 40.4 µM |
| Cc1cc(=O)[nH]c2c1ccc1ncc(C(=O)O)c(C)c12 | - | 12 µg/mL |
| O=C1Cn2c(nc3c(c2=S)C2=C(CCC/C2=C\c2ccncc2)C(c2ccncc2)S3)S1 | MTT | 42.5 µM |
| Clc1cc2nc(Cl)c(COCc3ccccc3)n2cc1Cl | - | >100 µM |
| CN(C)c1nc2c(Cl)c(Cl)ccc2n1COC(CO)CO | - | >100 µM |
| OCCCOCc1c(Cl)nc2ccc(Cl)cn12 | - | >100 µM |
| CC(C)=CCC/C(C)=C/CC/C(=C\CC/C(C)=C/C(=O)O)C(=O)O | resazurin | >20 µg/mL |
| OCC(CO)OCn1c(=S)[nH]c2c(Cl)cc(Cl)cc21 | - | >100 µM |
| CCCCOC[C@H]1O[C@@H](n2c(Cl)nc3cc(Cl)c(Cl)cc32)[C@H](O)[C@@H]1O | - | 60 µM |
| CNc1nc2cc(Cl)c(Cl)cc2n1COC(CO)CO | - | >100 µM |
| O[C@@H]1[C@H](O)[C@@H](CCl)O[C@H]1n1c(Cl)nc2cc(Cl)c(Cl)cc21 | - | 90 µM |
| O=c1sc2nc3c(c(=S)n2/c1=C/c1ccccc1)C1=C(CCC/C1=C\c1ccncc1)C(c1ccncc1)S3 | MTT | 38.5 µM |
| Nc1nc2c(Cl)c(Cl)ccc2n1COCCO | - | >100 µM |
| Clc1cc2nc(Cl)c(CSCc3ccccc3)n2cc1Cl | - | >100 µM |
| OCCOCn1c(SCc2ccccc2)nc2c(Cl)c(Cl)ccc21 | - | 35 µM |
| OCCSCc1c(Cl)nc2ccc(Cl)cn12 | - | >100 µM |
| OCC(CO)OCn1c(Cl)nc2c(Cl)c(Cl)ccc21 | - | >100 µM |
| CCCCCCCCCCCC(=O)c1c(O)cc(O)cc1O | resazurin | 13.2 µg/mL |
| O=c1[nH]c(=S)[nH]c2c3c([nH]c12)SC(c1ccncc1)C1=C3/C(=C/c2ccncc2)CCC1 | MTT | 12.8 µM |
| CNc1nc2cc(Cl)c(Cl)cc2n1COCCO | - | >100 µM |
| CCOC[C@H]1O[C@@H](n2c(Cl)nc3cc(Cl)c(Cl)cc32)[C@H](O)[C@@H]1O | - | 80 µM |
| OCCOCn1c(SCc2ccccc2)nc2cc(Cl)c(Cl)cc21 | - | 55 µM |
| CSC[C@H]1O[C@@H](n2c(Cl)nc3cc(Cl)c(Cl)cc32)[C@H](OC(C)=O)[C@@H]1OC(C)=O | - | >100 µM |

The last 3 rows once more:

compound	method	result
CCOC[C@H]1O[C@@H](n2c(Cl)nc3cc(Cl)c(Cl)cc32)[C@H](O)[C@@H]1O	-	80 µM
OCCOCn1c(SCc2ccccc2)nc2cc(Cl)c(Cl)cc21	-	55 µM
CSC[C@H]1O[C@@H](n2c(Cl)nc3cc(Cl)c(Cl)cc32)[C@H](OC(C)=O)[C@@H]1OC(C)=O	-	>100 µM